Results from patent publication US20040121316A1 (priority 2002, published 2004).

Test system: mutant HIV-1 I50V #1 (M46I/I47V/I50V)
Assay type: cell-based
Settings: EC50 of mutant M46I/I47V/I50V relative to wild type; class symbols

SMILES	I50V (#1) fold change
CCCCOC(=O)C(C)NP(=O)(COc1ccc(CC(NC(=O)OC2COC3OCCC23)C(O)CN(CC(C)C)S(=O)(=O)c2ccc(OC)cc2)cc1)Oc1ccccc1 (stereo not shown) [Example 30d]	− (≦3)
CCOC(=O)COP(=O)(COc1ccc(CC(NC(=O)OC2COC3OCCC23)C(O)CN(CC(C)C)S(=O)(=O)c2ccc(OC)cc2)cc1)Oc1ccccc1 (stereo not shown) [drawing 615 R1=OPh R2=Glc-Et]	− (≦3)
CCOC(=O)C(C)OP(=O)(Cc1ccc2c(c1)CCN(CC(NC(=O)OC1COC3OCCC13)C(O)CN(CC(C)C)S(=O)(=O)c1ccc(OC)cc1)C2)Oc1ccccc1 (stereo not shown)	+ (>3 to ≦10)
COc1ccc(S(=O)(=O)N(CC(C)C)CC(O)C(Cc2ccc(NCP(=O)(OCc3ccccc3)OCc3ccccc3)cc2)NC(=O)OC2COC3OCCC23)cc1 (stereo not shown)	+ (>3 to ≦10)
COC(=O)N[C@H](C(=O)N[C@@H](Cc1ccccc1)[C@@H](O)CN(Cc1ccc(-c2ccccn2)cc1)NC(=O)[C@@H](NC(=O)OC)C(C)(C)C)C(C)(C)C [Atazanavir, reference compound]	− (≦3)
Cc1cccc(C)c1OCC(=O)N[C@@H](Cc1ccccc1)[C@@H](O)C[C@H](Cc1ccccc1)NC(=O)[C@H](C(C)C)N1CCCNC1=O [Lopinavir, reference compound]	++ (>10 to ≦30)
CCCCOC(=O)CNP(=O)(COc1ccc(CC(NC(=O)OC2COC3OCCC23)C(O)CN(CC(C)C)S(=O)(=O)c2ccc(OC)cc2)cc1)Oc1ccccc1 (stereo not shown) [drawing 614 R1=OPh R2=Gly-Bu]	− (≦3)
COc1ccc(S(=O)(=O)N(CC(C)C)CC(O)C(Cc2ccc(OCP(=O)(Oc3ccccc3)OC(C)C(=O)OC(C)C)cc2)NC(=O)OC2COC3OCCC23)cc1 (stereo not shown) [Example 31a]	− (≦3)
CCOC(=O)C(NP(=O)(COc1ccc(CC(NC(=O)OC2COC3OCCC23)C(O)CN(CC(C)C)S(=O)(=O)c2ccc(OC)cc2)cc1)NC(C(=O)OCC)C(C)C)C(C)C (stereo not shown) [drawing 612 R1=Val-Et R2=Val-Et]	− (≦3)
CCCCOC(=O)C(CC)NP(=O)(COc1ccc(CC(NC(=O)OC2COC3OCCC23)C(O)CN(CC(C)C)S(=O)(=O)c2ccc(OC)cc2)cc1)NC(CC)C(=O)OCCCC (stereo not shown) [drawing 612 R1=Aba-Bu R2=Aba-Bu]	++ (>10 to ≦30)
CCCCOC(=O)C(CC(C)C)NP(=O)(COc1ccc(CC(NC(=O)OC2COC3OCCC23)C(O)CN(CC(C)C)S(=O)(=O)c2ccc(OC)cc2)cc1)NC(CC(C)C)C(=O)OCCCC (stereo not shown) [drawing 612 R1=Leu-Bu R2=Leu-Bu]	+ (>3 to ≦10)
COc1ccc(S(=O)(=O)N(CC(C)C)CC(O)C(Cc2ccc(OCP(=O)(NC(C)C(=O)OC(C)C)Oc3ccccc3)cc2)NC(=O)OC2COC3OCCC23)cc1 (stereo not shown) [drawing 614 R1=OPh R2=Ala-iPr]	− (≦3)
CCOP(=O)(Cc1ccc2c(c1)CCN(CC(NC(=O)OC1COC3OCCC13)C(O)CN(CC(C)C)S(=O)(=O)c1ccc(OC)cc1)C2)OCC (stereo not shown)	+ (>3 to ≦10)
CCOP(=O)(CNc1ccc(CC(NC(=O)OC2COC3OCCC23)C(O)CN(CC(C)C)S(=O)(=O)c2ccc(OC)cc2)cc1)OCC (stereo not shown)	− (≦3)
CCOC(=O)C(C)OP(=O)(COc1ccc(CC(NC(=O)OC2COC3OCCC23)C(O)CN(CC(C)C)S(=O)(=O)c2ccc(OC)cc2)cc1)OC(C)C(=O)OCC (stereo not shown) [drawing 613 R1=Lac-Et R2=Lac-Et]	− (≦3)
CCOC(=O)C(C)NP(=O)(COc1ccc(CC(NC(=O)OC2COC3OCCC23)C(O)CN(CC(C)C)S(=O)(=O)c2ccc(OC)cc2)cc1)OCc1ccccc1 (stereo not shown) [Example 30e]	− (≦3)
CCNP(=O)(COc1ccc(CC(NC(=O)OC2COC3OCCC23)C(O)CN(CC(C)C)S(=O)(=O)c2ccc(OC)cc2)cc1)NCC (stereo not shown) [drawing 612 R1=NHEt R2=NHEt]	− (≦3)
CCC[C@@]1(CCc2ccccc2)CC(O)=C([C@H](CC)c2cccc(NS(=O)(=O)c3ccc(C(F)(F)F)cn3)c2)C(=O)O1 [Tipranavir, reference compound]	− (≦3)
COc1ccc(S(=O)(=O)N(CC(C)C)CC(O)C(Cc2ccc(OCP(=O)(O)O)cc2)NC(=O)OC2COC3OCCC23)cc1 (stereo not shown) [drawing 608 R1=OH R2=OH]	− (≦3)
CCOC(=O)C(C)OP(=O)(COc1ccc2c(c1)CCN(CC(NC(=O)OC1COC3OCCC13)C(O)CN(CC(C)C)S(=O)(=O)c1ccc(OC)cc1)C2)Oc1ccccc1 (stereo not shown)	+ (>3 to ≦10)

Same assay, conditions: mutant I50V (#1) vs wild type

SMILES	I50V (#1) fold change
COc1ccc(S(=O)(=O)N(CC(C)C)CC(O)C(CC2=CCN(CP(=O)(O)OC(C)C(=O)O)CC2)NC(=O)OC2COC3OCCC23)cc1 (stereo not shown)	− (≦3)
COc1ccc(S(=O)(=O)N(CC(C)C)C[C@@H](O)[C@H](Cc2ccc(OCP(=O)(OCc3ccccc3)OCc3ccccc3)cc2)NC(=O)OC2CCOC2)cc1 (stereo partly shown) [OMe, OBn]	+ +
CC(C)CN(CC(O)C(Cc1ccc(O)cc1)NC(=O)OC1COC2OCCC12)S(=O)(=O)c1ccc(N)cc1 (stereo not shown) [OH, p-NH2]	− (≦3)
CC(C)CN(C[C@@H](O)[C@H](Cc1ccc([N+](=O)[O-])cc1)NC(=O)O[C@H]1CO[C@H]2OCC[C@H]21)S(=O)(=O)c1ccc(OCP(=O)(Oc2ccccc2)Oc2ccccc2)cc1 [NO2, phenol]	− (≦3)
COc1ccc(S(=O)(=O)N(CCN2CCOCC2)CC(O)C(Cc2ccc(OCP(=O)(O)O)cc2)NC(=O)OC2COC3OCCC23)cc1 (stereo not shown)	+ (>3 to ≦10)
CC(C)CN(CC(O)C(Cc1ccccc1)NC(=O)OC1COC2OCCC12)S(=O)(=O)c1cccc(O)c1 (stereo not shown)	+ (>3 to ≦10)
COc1ccc(S(=O)(=O)N(CC(C)C)CC(O)C(CC2=CCN(CCP(=O)(OCc3ccccc3)OCc3ccccc3)CC2)NC(=O)OC2COC3OCCC23)cc1 (stereo not shown) [drawing 673]	− (≦3)
CC(C)CN(CC(O)C(Cc1ccc(OCP(=O)(OCc2ccccc2)OCc2ccccc2)cc1)NC(=O)OC1COC2OCCC12)S(=O)(=O)c1cccc(N)c1 (stereo not shown)	− (≦3)
COc1ccc(S(=O)(=O)N(CC(C)C)CC(O)C(Cc2ccccc2)NC(=O)OC2COC3OCCC23)cc1OCP(=O)(O)O (stereo not shown)	+ (>3 to ≦10)
CCCCOC(=O)C(C)OP(=O)(COc1ccc(C[C@H](NC(=O)O[C@H]2CO[C@H]3OCC[C@H]32)[C@H](O)CN(CC(C)C)S(=O)(=O)c2cccc(N)c2)cc1)Oc1ccccc1 (stereo partly shown)	− (≦3)
CC(C)CN(CC(O)C(Cc1ccc(OCP(=O)(O)O)cc1)NC(=O)OC1COC2OCCC12)S(=O)(=O)c1ccc(N)cc1 (stereo not shown)	+ (>3 to ≦10)
CCOP(=O)(COc1ccc(CC(NC(=O)OC2CCOC2)C(O)CN(CC(C)C)S(=O)(=O)c2ccc(OC)cc2)cc1)OCC (stereo not shown) [OMe, OEt]	+ + +
CCOC(=O)C(C)OP(=O)(CN1CC=C(CC(NC(=O)OC2COC3OCCC23)C(O)CN(CC(C)C)S(=O)(=O)c2ccc(OC)cc2)CC1)Oc1ccccc1 (stereo not shown)	− (≦3)
CCCCOC(=O)C(C)OP(=O)(COc1ccc(CC(NC(=O)OC2COC3OCCC23)C(O)CN(CC(C)C)S(=O)(=O)c2cccc(N)c2)cc1)Oc1ccccc1 (stereo not shown) [drawing 719]	− (≦3)
CC(C)CN(C[C@@H](O)[C@H](Cc1ccc(OCP(=O)(Oc2ccccc2)Oc2ccccc2)cc1)NC(=O)OC1CCOC1)S(=O)(=O)c1ccc(N)cc1 (stereo partly shown) [NH2, phenol]	+ (>3 to ≦10)
COc1ccc(S(=O)(=O)N(CCN2CCOCC2)CC(O)C(Cc2ccc(OCP(=O)(OCc3ccccc3)OCc3ccccc3)cc2)NC(=O)OC2COC3OCCC23)cc1 (stereo not shown)	+ (>3 to ≦10)
CCOP(=O)(COc1cc(S(=O)(=O)N(CC(C)C)CC(O)C(Cc2ccccc2)NC(=O)OC2COC3OCCC23)ccc1O)OCC (stereo not shown)	+ (>3 to ≦10)
COc1ccc(S(=O)(=O)N(CC(C)C)CC(O)C(Cc2ccccc2)NC(=O)OC2COC3OCCC23)cc1O (stereo not shown)	− (≦3)
CCOC(=O)C(C)OP(=O)(Cc1ccc2c(c1)CCN(C[C@H](NC(=O)O[C@H]1CO[C@H]3OCC[C@H]31)[C@H](O)CN(CC(C)C)S(=O)(=O)c1ccc(OC)cc1)C2)Oc1ccccc1 (stereo partly shown)	+ +
CC(C)CN(CC(O)C(Cc1ccc(OCP(=O)(OCc2ccccc2)OCc2ccccc2)cc1)NC(=O)OC1COC2OCCC12)S(=O)(=O)c1ccc(N)cc1 (stereo not shown)	− (≦3)
COc1ccc(S(=O)(=O)N(CC(C)C)C[C@@H](O)[C@H](Cc2ccc(OCP(=O)(Oc3ccccc3)Oc3ccccc3)cc2)NC(=O)OC2CCOC2)cc1 (stereo partly shown) [OMe, phenol]	+ + +
COc1ccc(S(=O)(=O)N(CC(C)C)CC(O)C(Cc2ccc(NCP(=O)(O)O)cc2)NC(=O)OC2COC3OCCC23)cc1 (stereo not shown)	+ +
COc1ccc(S(=O)(=O)N(CC(C)C)CC(O)C(Cc2ccc(OCc3ccccc3)cc2)NC(=O)OC2COC3OCCC23)cc1 (stereo not shown)	− (≦3)
CC(C)CN(CC(O)C(Cc1ccccc1)NC(=O)OC1COC2OCCC12)S(=O)(=O)c1ccc(OCP(=O)(O)O)cc1 (stereo not shown)	− (≦3)
CC(C)CN(CC(O)C(Cc1ccccc1)NC(=O)OC1COC2OCCC12)S(=O)(=O)c1ccc(O)cc1 (stereo not shown)	− (≦3)
CCOP(=O)(COc1cc(S(=O)(=O)N(CC(C)C)CC(O)C(Cc2ccccc2)NC(=O)OC2COC3OCCC23)ccc1OC)OCC (stereo not shown)	+ (>3 to ≦10)
COc1ccc(S(=O)(=O)N(CC(C)C)C[C@@H](O)[C@H](Cc2ccc(OCP(=O)(O)O)cc2)NC(=O)OC2CCOC2)cc1 (stereo partly shown) [OMe, OH]	+ + +

Test system: mutant HIV-1 I50V #2 (L10I/M46I/I50V)
Assay type: cell-based
Settings: EC50 of mutant L10I/M46I/I50V relative to wild type; class symbols

SMILES	I50V (#2) fold change
COC(=O)N[C@H](C(=O)N[C@@H](Cc1ccccc1)[C@@H](O)CN(Cc1ccc(-c2ccccn2)cc1)NC(=O)[C@@H](NC(=O)OC)C(C)(C)C)C(C)(C)C [Atazanavir, reference compound]	− (≦3)
CCOP(=O)(CCNCc1ccc(CC(NC(=O)OC2COC3OCCC23)C(O)CN(CC(C)C)S(=O)(=O)c2ccc(OC)cc2)cc1)OCC (stereo not shown) [drawing 619 R1=Et R2=Et]	− (≦3)
Cc1cccc(C)c1OCC(=O)N[C@@H](Cc1ccccc1)[C@@H](O)C[C@H](Cc1ccccc1)NC(=O)[C@H](C(C)C)N1CCCNC1=O [Lopinavir, reference compound]	+++ (>30)
COc1ccc(S(=O)(=O)N(CC(C)C)CC(O)C(Cc2ccc(CNCCP(=O)(O)O)cc2)NC(=O)OC2COC3OCCC23)cc1 (stereo not shown) [drawing 619 R1=H R2=H]	+ (>3 to ≦10)
CCC[C@@]1(CCc2ccccc2)CC(O)=C([C@H](CC)c2cccc(NS(=O)(=O)c3ccc(C(F)(F)F)cn3)c2)C(=O)O1 [Tipranavir, reference compound]	− (≦3)
